In the supplement of paper PMC9931576:
Human monoclonal antibodies against the spike receptor-binding domain (heavy:light variable regions). IC50 against pseudoviruses bearing the spike of naturally observed variants; lower = stronger; >10 µg/ml means not reached at the top dose. No active / inactive call. The stated detection limit is 0.0005 µg/ml; values near or below 0.001 µg/ml lie at the floor of the assay.

B1: BD58-0578 (protein)
chain 1: EVLLLESGGDLVQPGGSLRLSCAASGFTFTNYAMTWVRQSPGRGLEWVSSISGSGDKKYYADSVKGRFTISRDNSKNTLYLQMNGLRAEDPAVYYCAKALYSYSSAYRDVFDIWGQGTRVTVSS
chain 2: QSALTQPASVSGSPGQSITISCTGTSSDVGNYNLVSWYQQHPGKAPKLMIYEVSKRPSGVSNRFFASKSDNTASLTISGLQTEDEADYYCCSYASSGTYYVFGTGTRVTVL
B2: BD56-1221 (protein)
chain 1: QVQLVESGGGVVQPQRSLRLSCAASGFPFTNYVMHWVRQAPGKGLEWVAVISSDGSTKYYADSVKGRFTTSRDNFKNTLYLQMSSLRAEDTAVYYCARALGNPRTTYYYHGFDVWGQGTTVTVSS
chain 2: DIQLTQSPSSLSASVGDRVTITCRASQSINSYLNWYRQKPGKAPKLLIYAASTLQSGVPSRFSGSGSETDFALTISSLQPEDFATYYCQQSYNTHSTFGPGTRVDIK
B3: BD58-0572 (protein)
chain 1: QVQLQESGPGLVKPSETLSLTCTVSGGSTSRYYWHWIRQPPGKGLEWIGYIYYSGTTNYNPSLKSRATISVDTSKNQFSLKVNSMTAVDTAVYYCARSVGSSWYGDTYYHFAMDVWGQGTTVTVSS
chain 2: EIVMTQSPATLSVSPGERATLSCRASQSVSNNLAWYQQKPGQAPRLLIYGASTRATGIPARFSGSGSGTEFTLTISSLQSEDFAVYFCQHYNNWPPAITFGPGTKVDIK
B4: BD58-0588 (protein)
chain 1: QITLNESGPTLVKPTQTLTLTCTFSGFSLNTIGVGVGWIRQPPGKALEWLALIYWDDDKRYSPSLKRRLTITKDTSKNQVVLTMTSMDPADTATYYCATLGGYFDWLSWGYWGQGTLVTVSS
chain 2: QSVLTQPPSASGTPGQRVTICCSGNYSNIGSNFVYWYQQLPGAAPKPLIYRNNQRPSGVPDRFSGSKSGTSASLAISGLRSEDEADYYCAAWDDSLNAWVFGRGTKVTVL
B5: BD56-1198 (protein)
chain 1: EVQLVESGGGLIQPGGSLRLSCAASGIIVSRNYMSWVRQAPGKGLEWVSLIYSGGTTYYADSVKGRFTTSRDNSKNTLYLQMNSLRAEDTAVYYCARSVGYGRFDYWGQGTLVTVSS
chain 2: DIQMTQSPSSLSASVGDRVTITCQASQDINNYLNWYQQKPGKAPKLLIYDASNLETGVPSRFSGSGSETDFTFTISSLQPEDIATYYCQQYDNLPPVTFGPGTKVDIK
B6: BD56-1097 (protein)
chain 1: QVQLVQSGAEVKKPGSSVTVSCEASGGTFGSYAISWVRQAPGQGLEWMGRVIPIFGISNHAQKFQDRVTITADKSTSTAYMELSSLRPEDTAVYFCARDGPEGPDYDYGGTSPYYYYMDVWGKGTTVTVSS
chain 2: QSVLTQPPSVSGTPGQRVTISCSGGSSNIGSNTVNWYQQLPGTAPKLLIYSNYQRPSGVPDRFSGSKSGASASLAISGLQSEDEADYYCSLWDDTLDGWVFGGGTKLTVL
B7: BD58-0571 (protein)
chain 1: QLQLQESGPGLVKPSETLSLTCTVSGGSISSSSYYWGWIRQPPGKGLEWIGSFYHSGSTYYNPSLQSRVTISEDTSRNQLSLKVTSVTAADTAVYYCARQRFGYCTGGVCHGDWYFDLWGRGTLVTVSS
chain 2: DIQMTQSPSTLSASVGDRVTITCRASQSFSSWLAWYQQKPGKAPKLLIYKASNLESGVPSRFSGSGSGTEFTLTISSLQPDDLATYYCQQYSTYPWTFGQGTKVEIK
B8: BD58-0575 (protein)
chain 1: QVQLVESGGGVVQPGRSLRLSCAASGFTFRNYGLHWVRQAPGKGLEWVAVISYDGENKYYVESVKGRFTISRDNSKNTLFLQMNSLRGDDTAVYYCAKGAGPYCSGASCYDTQAFDYWGQGTLVTVSS
chain 2: SYVLTQPPSVSVAPGKTASITCGGNNIQSKSVHWYQQKPGQAPVLVIYYDIDRPSGIPERFSGSKSGNTATLTISRVEAGDEADYYCQVWDSSSDHYVFGTGTRVAVL
B9: BD56-1220 (protein)
chain 1: QVQLVQSGAEVKKPGASVRISCKASGYTFTSYYIHWVRQAPGQGLEWMGIVNPSAGSTSYALKFQGRVTMTGDTSTSTVYMELSSLRPEDTAMYYCARDFFLIPAANAFDIWGQGTMVTVSS
chain 2: EIVLTQSPDTLSLSPGERATLSCRASQSVSTYLAWYQQKPGQAPRLLIYDASNRATGIPARFSGSGSGTDFTLTISSLEPEDFAVYYCQQRTNWPRMYTFGQGTKLEIK
B10: BD56-1226 (protein)
chain 1: QVHLVQSGAAVQKPGASLKVSCQASGSTFTNQYIHWVRQAPGQGLEWMGIINPSAGSTTYAQKFQGRLTMTTDTSTSTLYMELRSLRSEDTAVYYCARDLVFVPASSALDVWGQGTTVTVSS
chain 2: EIVLTQSPATLSLSPGERATLSCKASQSVSTYLAWYQQKPGQAPRLLIYDASNRATGIPTRFSGSGSGTDFTLTISSLEPEDFAVYYCQQRSGWPRMFSFGPGTKVAIK
B11: BD56-1244 (protein)
chain 1: EVQVVESGGGLVKPGGSLRLSCAASGFTFRSYSMNWVRQGPGQGPEWVSFISSGSSFRDYADSVKGRFTIYRDNAKNSVYLQMHGLRAEDTAVYYCARGGYTDNSDWYDNPNDLDYAMDVWGQGTTVAVSS
chain 2: EIVMTQSPATLSVSPGERATLSCRASQSVSSNLAWYQQKPGQAPRLLIYGASTRATGIPARFSGSGSGTEFTLTISSLQSEDFAVYYCQQYNNWPRTFGQGTEVEIK
B12: COV2-2046 (protein)
chain 1: EVQLVESGGGLVQPGRSLRLSCAASGFTFDDYAMHWVRQAPGKGLEWVSGISWNSGSIAYTDSVKGRFTISRDNAKNSLYLQMNSLRAEDTALYYCAKAHSTGHQYYYGMDVWGQGTTVTVSS
chain 2: DIQMTQSPSSLSASVGDRVTITCRASQSISSFLNWYQQKPGKAPKLLIYAAFNLQSGVPSRFSGSGSGTDFTLTISSLQSEDFATYYCQQSYNTPYTFGQGTKLEIK

These binders were tested against SARS-CoV-2 Omicron BA.1 spike pseudovirus (assay: pseudovirus neutralization IC50; higher = weaker neutralization).
Description: (§1)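 Single-round VSV luciferase pseudovirus mixed with antibody dilutions for 1 h and put on Huh-7 cells for about a day; IC50 from the dose curve.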

Row | Binder | pseudovirus neutralization IC50
1 | B1 | > 10 µg/mL
2 | B2 | > 10 µg/mL
3 | B3 | > 10 µg/mL
4 | B4 | 0.0349 µg/mL
5 | B5 | 0.0116 µg/mL
6 | B6 | > 10 µg/mL
7 | B7 | > 10 µg/mL
8 | B8 | > 10 µg/mL
9 | B9 | 1.96 µg/mL
10 | B10 | > 10 µg/mL
11 | B11 | 0.0174 µg/mL
12 | B12 | 0.00485 µg/mL

Each binder was assayed against SARS-CoV-2 Omicron BA.2 spike pseudovirus in the same assay as above.
Description: as §1

Row | Binder | pseudovirus neutralization IC50
13 | B1 | > 10 µg/mL
14 | B2 | > 10 µg/mL
15 | B3 | > 10 µg/mL
16 | B4 | 0.00823 µg/mL
17 | B5 | 0.00442 µg/mL
18 | B6 | > 10 µg/mL
19 | B7 | > 10 µg/mL
20 | B8 | > 10 µg/mL
21 | B9 | 2.58 µg/mL
22 | B10 | > 10 µg/mL
23 | B11 | 0.0145 µg/mL
24 | B12 | 0.0045 µg/mL

Each binder was assayed against SARS-CoV-2 Omicron BA.2.75 spike pseudovirus in the same assay as above.
Description: as §1

Row | Binder | pseudovirus neutralization IC50
25 | B1 | > 10 µg/mL
26 | B2 | > 10 µg/mL
27 | B3 | > 10 µg/mL
28 | B4 | 0.0733 µg/mL
29 | B5 | 0.00609 µg/mL
30 | B6 | > 10 µg/mL
31 | B7 | > 10 µg/mL
32 | B8 | > 10 µg/mL
33 | B9 | 2.64 µg/mL
34 | B10 | > 10 µg/mL
35 | B11 | 0.0138 µg/mL
36 | B12 | 0.003 µg/mL

These binders were tested against SARS-CoV-2 Omicron BA.5 spike pseudovirus in the same assay as above.
Description: as §1

Row | Binder | pseudovirus neutralization IC50
37 | B1 | > 10 µg/mL
38 | B2 | > 10 µg/mL
39 | B3 | > 10 µg/mL
40 | B4 | 0.0055 µg/mL
41 | B5 | 0.00359 µg/mL
42 | B6 | > 10 µg/mL
43 | B7 | > 10 µg/mL
44 | B8 | > 10 µg/mL
45 | B9 | 3.86 µg/mL
46 | B10 | > 10 µg/mL
47 | B11 | 0.784 µg/mL
48 | B12 | 0.18 µg/mL

These binders were tested against SARS-CoV-2 Omicron BQ.1.1 spike pseudovirus in the same assay as above.
Description: as §1

Row | Binder | pseudovirus neutralization IC50
49 | B1 | > 10 µg/mL
50 | B2 | > 10 µg/mL
51 | B3 | > 10 µg/mL
52 | B4 | > 10 µg/mL
53 | B5 | 0.0197 µg/mL
54 | B6 | > 10 µg/mL
55 | B7 | > 10 µg/mL
56 | B8 | > 10 µg/mL
57 | B9 | 3.46 µg/mL
58 | B10 | > 10 µg/mL
59 | B11 | > 10 µg/mL
60 | B12 | 0.581 µg/mL

Each binder was assayed against SARS-CoV-2 Omicron XBB spike pseudovirus in the same assay as above.
Description: as §1

Row | Binder | pseudovirus neutralization IC50
61 | B1 | > 10 µg/mL
62 | B2 | > 10 µg/mL
63 | B3 | > 10 µg/mL
64 | B4 | > 10 µg/mL
65 | B5 | 0.0827 µg/mL
66 | B6 | > 10 µg/mL
67 | B7 | > 10 µg/mL
68 | B8 | > 10 µg/mL
69 | B9 | 2.55 µg/mL
70 | B10 | > 10 µg/mL
71 | B11 | 0.397 µg/mL
72 | B12 | > 10 µg/mL

These binders were tested against SARS-CoV-2 early D614G spike pseudovirus in the same assay as above.
Description: as §1

Row | Binder | pseudovirus neutralization IC50
73 | B1 | > 10 µg/mL
74 | B2 | > 10 µg/mL
75 | B3 | > 10 µg/mL
76 | B4 | > 10 µg/mL
77 | B5 | > 10 µg/mL
78 | B6 | > 10 µg/mL
79 | B7 | > 10 µg/mL
80 | B8 | > 10 µg/mL
81 | B9 | > 10 µg/mL
82 | B10 | > 10 µg/mL
83 | B11 | 0.0184 µg/mL
84 | B12 | 0.00237 µg/mL
